Compound potency records, mixed from different reports. Data source: NIAID ChemDB in PubChem.

All rows: whole-cell or culture tests; organism: Aspergillus fumigatus; measure: MIC

a–b is a range or a potency band. Neighbouring rows are from separate reports.

CCC(C)CCCCCCC1CC(=O)NCC(=O)N[C@@H](CCCN)C(=O)N[C@@H](C(C)C)C(=O)N1 ; strain or isolate: TIMM0063 ; result: >80 µg/mL
Cc1noc(NS(=O)(=O)c2ccc(N)cc2)c1C ; strain or isolate: IFM 47450 ; result: 128 µg/mL
COC(=O)N[C@H](C(=O)NN(CC[C@@]1(Cc2ccccc2)C(=O)N(C2c3ccccc3C[C@H]2O)C[C@H]1O)Cc1ccc(Br)cc1)C(C)(C)C ; strain or isolate: RCMB 002003 ; method: agar ; result: 15.6 µg/mL
CN(Cc1cccc2ccccc12)/N=C\Cc1ccccc1 ; result: >64 µg/mL
CN1CCN(c2n[nH]c(N3C(=O)CS[C@@H]3c3ccccc3)n2)CC1 ; strain or isolate: 168.95 ; method: broth dilution ; result: 100 µg/mL
Cc1cc(NS(=O)(=O)c2ccc(N)cc2)nc(C)n1 ; strain or isolate: IFM 51126 ; result: ≥256 µg/mL
COC(=O)/C=C/c1ccc(OC)cc1 ; method: broth dilution / resazurin ; result: 125 µg/mL
CCCCCCCCCCCC(=O)NC(CCCN)C(N)=O ; strain or isolate: ATCC 42203 ; method: broth dilution ; result: >100 µg/mL
CC(C)c1ccc(S(=O)(=O)Nc2ccc(CN(C)CC(O)(Cn3cncn3)c3ccc(F)cc3F)cc2)cc1 ; strain or isolate: 98 003 ; method: resazurin ; result: 2.89 µg/mL
CC1S[C@H](c2ccccc2)N(c2nc(N3CCOCC3)n[nH]2)C1=O ; strain or isolate: 168.95 ; method: broth dilution ; result: 100 µg/mL
CN(Cc1cccc2ccccc12)/N=C\C=C\c1ccccc1 ; result: >64 µg/mL
C[C@H]1[C@H](O)[C@@H](C)/C=C/C=C/C=C/C=C/C=C/C=C/C=C/[C@H](O[C@@H]2O[C@H](C)[C@@H](O)[C@H](N)[C@@H]2O)C[C@@H]2O[C@](O)(C[C@@H](O)C[C@@H](O)CC[C@H](O)[C@@H](O)C[C@@H](O)CC(=O)O[C@H]1C)C[C@H](O)[C@H]2C(=O)O ; strain or isolate: Clinical isolate ; method: XTT ; result: 1–2 µg/mL
CN(Cc1ccc(S(=O)(=O)Nc2ccccc2)cc1)CC(O)(Cn1cncn1)c1ccc(F)cc1F ; strain or isolate: 98 003 ; method: resazurin ; result: 3.08 µg/mL
CC(N1CCN(c2ccc(-n3cnnn3)cc2)C1=O)[C@](O)(Cn1cncn1)c1ccc(F)cc1F ; strain or isolate: TIMM1728 ; result: 0.5 µg/mL
CN(Cc1ccc(S(=O)(=O)NC(C)(C)C)cc1)CC(O)(Cn1cncn1)c1ccc(F)cc1F ; strain or isolate: 98 003 ; method: resazurin ; result: 1.88 µg/mL
CCCCCCCC/C=C\CCCCCCCC(=O)N[C@H](C(=O)N1C[C@H](C)C[C@H]1C(=O)N[C@H](C(=O)N[C@@H](CCO)C(=O)N[C@@H](C)CO)C(C)C)[C@@H](C)O ; strain or isolate: MF5668 ; method: broth dilution / visual reading ; result: >32 µg/mL
COC(=O)N[C@H](C(=O)NN(CC[C@@]1(Cc2ccccc2)C(=O)N(C2c3ccccc3C[C@H]2O)C[C@@H]1O)Cc1ccc(-c2cccnc2)cc1)C(C)(C)C ; strain or isolate: RCMB 002003 ; method: agar ; result: 15.6 µg/mL
O=C(CSc1nnc(-c2ccc3ncccc3c2)o1)Nc1ccccc1 ; method: agar ; result: 100 µg/mL
C[C@H]1[C@H](O)[C@@H](C)/C=C/C=C/C=C/C=C/C=C/C=C/C=C/[C@H](O[C@@H]2O[C@H](C)[C@@H](O)[C@H](N)[C@@H]2O)C[C@@H]2O[C@](O)(C[C@@H](O)C[C@@H](O)CC[C@H](O)[C@@H](O)C[C@@H](O)CC(=O)O[C@H]1C)C[C@H](O)[C@H]2C(=O)O ; method: agar diffusion ; result: 20 µg/mL
COC(=O)N[C@H](C(=O)NN(CCC[C@@]1(Cc2ccccc2)C(=O)N(C2c3ccccc3C[C@H]2O)C[C@H]1O)Cc1ccc(-c2cccnc2)cc1)C(C)(C)C ; strain or isolate: RCMB 002003 ; method: agar ; result: 15.6 µg/mL
CC(=O)N1CCN(c2nc(Nc3ccc(C#N)c(C(F)(F)F)c3)nc(Oc3cccc4cccnc34)n2)CC1 ; strain or isolate: MTCC 343 ; method: agar ; result: 25 µg/mL
C[C@@H](N1CCN(c2ccc(-n3cnnn3)cc2)C1=O)[C@@](O)(Cn1cncn1)c1ccc(F)cc1F ; strain or isolate: 437 ; result: >64 µg/mL
Cc1ccc([C@H]2SCC(=O)N2c2nc(N3CCOCC3)n[nH]2)cc1 ; strain or isolate: 168.95 ; method: broth dilution ; result: 100 µg/mL
CCC(C)CC(C)CCCCCCCCC(=O)N[C@H]1C[C@@H](O)[C@H](NCCN)NC(=O)[C@@H]2[C@@H](O)CCN2C(=O)[C@H]([C@H](O)CCN)NC(=O)[C@H]([C@H](O)[C@@H](O)c2ccc(O)cc2)NC(=O)[C@@H]2C[C@@H](O)CN2C(=O)[C@H]([C@@H](C)O)NC1=O ; method: XTT ; result: 0.5 µg/mL
CCCCCCCCCCCCCC(=O)NC(CCCN)C(=O)NC(CCCN)C(=O)NC(CCCN)C(N)=O ; strain or isolate: ATCC 42203 ; method: broth dilution ; result: 3.1 µg/mL
CC(C)S(=O)(=O)Nc1ccc(CN(C)CC(O)(Cn2cncn2)c2ccc(F)cc2F)cc1 ; strain or isolate: 98 003 ; method: resazurin ; result: 29 µg/mL
O=C(CSc1nnc(-c2ccc3ncccc3c2)o1)Nc1ccc(I)cc1 ; method: agar ; result: 100 µg/mL
CCC(C)CC(C)CCCCCCCCC(=O)N[C@H]1C[C@@H](O)[C@H](NCCN)NC(=O)[C@@H]2[C@@H](O)CCN2C(=O)[C@H]([C@H](O)CCN)NC(=O)[C@H]([C@H](O)[C@@H](O)c2ccc(O)cc2)NC(=O)[C@@H]2C[C@@H](O)CN2C(=O)[C@H]([C@@H](C)O)NC1=O ; strain or isolate: ATCC 204305 ; method: broth dilution ; result: 128 µg/mL
N#Cc1ccc(Nc2nc(Oc3cccc4cccnc34)nc(N3CCN(c4ccccn4)CC3)n2)cc1C(F)(F)F ; strain or isolate: MTCC 343 ; method: agar ; result: 12.5 µg/mL
CC[C@@H]([C@H](C)O)n1ncn(-c2ccc(N3CCN(c4ccc(OC[C@@H]5CO[C@@](Cn6cncn6)(c6ccc(F)cc6F)C5)cc4)CC3)cc2)c1=O ; method: XTT ; result: 0.5 µg/mL
COc1cc(NS(=O)(=O)c2ccc(N)cc2)nc(OC)n1 ; strain or isolate: IFM 53412 ; result: ≥256 µg/mL
Cc1ccc(C(C)C)c(O)c1 ; strain or isolate: F07 ; result: 0.16 µg/mL
Oc1ccc(CCN=C=S)cc1 ; strain or isolate: Rit 21 ; method: visual reading ; result: 4 µg/mL
CCCc1ccc(NS(=O)(=O)c2ccc(CN(C)CC(O)(Cn3cncn3)c3ccc(F)cc3F)cc2)cc1 ; strain or isolate: 98 003 ; method: resazurin ; result: 1.56 µg/mL
CC(C)N1CCN(c2nc(Nc3ccc(C#N)c(C(F)(F)F)c3)nc(Oc3cccc4cccnc34)n2)CC1 ; strain or isolate: MTCC 343 ; method: agar ; result: 50 µg/mL
CCCCCCCCCCCCCCCCCC(=O)NC(CCCN)C(=O)NC(CCCN)C(N)=O ; strain or isolate: ATCC 42203 ; method: broth dilution ; result: 6.25 µg/mL
CC(C)NS(=O)(=O)c1ccc(CN(C)CC(O)(Cn2cncn2)c2ccc(F)cc2F)cc1 ; strain or isolate: 98 003 ; method: resazurin ; result: 2.35 µg/mL
CC(C)CCCCCCCCC1CC(=O)NCC(=O)N[C@@H](CCCN)C(=O)N[C@@H](C(C)C)C(=O)N1 ; strain or isolate: IFM41088 ; result: >80 µg/mL
COC(=O)N[C@H](C(=O)NN(CC[C@@]1(Cc2ccccc2)C(=O)N(C2c3ccccc3C[C@H]2O)C[C@@H]1O)Cc1ccc(-c2ccccn2)cc1)C(C)(C)C ; strain or isolate: RCMB 002003 ; method: agar ; result: 15.6 µg/mL
CCC(C)CC(C)CCCCCCCCC(=O)N[C@H]1C[C@@H](O)[C@H](NCCN)NC(=O)[C@@H]2[C@@H](O)CCN2C(=O)[C@H]([C@H](O)CCN)NC(=O)[C@H]([C@H](O)[C@@H](O)c2ccc(O)cc2)NC(=O)[C@@H]2C[C@@H](O)CN2C(=O)[C@H]([C@@H](C)O)NC1=O ; strain or isolate: ND256 ; method: broth dilution ; result: 0.03 µg/mL
CCCCCCCC(=O)NC(CCCN)C(=O)NC(CCCN)C(=O)NC(CCCN)C(N)=O ; strain or isolate: ATCC 42203 ; method: broth dilution ; result: >100 µg/mL
COC(=O)N[C@H](C(=O)NN(CC[C@@]1(Cc2ccccc2)C(=O)N(C2c3ccccc3C[C@H]2O[Si](C)(C)C(C)(C)C)C[C@@H]1O[Si](C)(C)C(C)(C)C)Cc1ccc(Br)cc1)C(C)(C)C ; strain or isolate: RCMB 002003 ; method: agar ; result: 7.8 µg/mL
C[C@H]1[C@H](O)[C@@H](C)/C=C/C=C/C=C/C=C/C=C/C=C/C=C/[C@H](O[C@@H]2O[C@H](C)[C@@H](O)[C@H](N)[C@@H]2O)C[C@@H]2O[C@](O)(C[C@@H](O)C[C@@H](O)CC[C@H](O)[C@@H](O)C[C@@H](O)CC(=O)O[C@H]1C)C[C@H](O)[C@H]2C(=O)O ; strain or isolate: Clinical isolate ; method: absorbance ; result: 0.5 µg/mL
Cc1cccc(/C=N\N(C)Cc2cccc3ccccc23)c1 ; result: >64 µg/mL
O=C(CSc1nnc(-c2ccc3ncccc3c2)o1)Nc1nc2ccc(Br)cc2s1 ; method: agar ; result: 50 µg/mL
CN(Cc1cccc2ccccc12)/N=C\c1ccc2ccccc2c1 ; result: >64 µg/mL
CCOc1ccc(NC(=O)CSc2nnc(-c3ccc4ncccc4c3)o2)cc1 ; method: agar ; result: 100 µg/mL
COc1ccc(NS(=O)(=O)c2ccc(N)cc2)nn1 ; strain or isolate: IFM 47450 ; result: ≥256 µg/mL

The last 7 rows once more:

COC(=O)N[C@H](C(=O)NN(CC[C@@]1(Cc2ccccc2)C(=O)N(C2c3ccccc3C[C@H]2O[Si](C)(C)C(C)(C)C)C[C@@H]1O[Si](C)(C)C(C)(C)C)Cc1ccc(Br)cc1)C(C)(C)C ; strain or isolate: RCMB 002003 ; method: agar ; result: 7.8 µg/mL
C[C@H]1[C@H](O)[C@@H](C)/C=C/C=C/C=C/C=C/C=C/C=C/C=C/[C@H](O[C@@H]2O[C@H](C)[C@@H](O)[C@H](N)[C@@H]2O)C[C@@H]2O[C@](O)(C[C@@H](O)C[C@@H](O)CC[C@H](O)[C@@H](O)C[C@@H](O)CC(=O)O[C@H]1C)C[C@H](O)[C@H]2C(=O)O ; strain or isolate: Clinical isolate ; method: absorbance ; result: 0.5 µg/mL
Cc1cccc(/C=N\N(C)Cc2cccc3ccccc23)c1 ; result: >64 µg/mL
O=C(CSc1nnc(-c2ccc3ncccc3c2)o1)Nc1nc2ccc(Br)cc2s1 ; method: agar ; result: 50 µg/mL
CN(Cc1cccc2ccccc12)/N=C\c1ccc2ccccc2c1 ; result: >64 µg/mL
CCOc1ccc(NC(=O)CSc2nnc(-c3ccc4ncccc4c3)o2)cc1 ; method: agar ; result: 100 µg/mL
COc1ccc(NS(=O)(=O)c2ccc(N)cc2)nn1 ; strain or isolate: IFM 47450 ; result: ≥256 µg/mL